PubChem BioAssay AID624099 – ICCB-Longwood | 2012
Purpose: 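Knock-downs relieving repression by E2 of an HPV18 LCR luciferase reporter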 (primary screen). System: human C33A cervical carcinoma cells (HPV-negative) stably expressing BPV1 E2 and an HPV18 LCR luciferase reporter. Reagents: siRNA pool against human genes, 40 nM. Duration: 72 h. Detection: 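Per-well luciferase luminescence, z-scored on each plate against the plate mean and SD with control wells left out, then averaged across three replicate plates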. Reading the numbers: mean z-score and z-score: higher = stronger reporter signal, weaker E2 silencing. Rule for the call: 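Mean z ≥ 2 together with z ≥ 2 in two or more of the three replicates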.
Here is a random part of about 21,000 deposited reagents. 497 of them (2.4%) were called active. 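Higher z means weaker E2 silencing; only reporter increases were scored, and knock-downs that hurt cell survival may mask genuine repressor factors.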 No sequences are given here.

| target gene | mean z-score | z-score, replicate A | z-score, replicate B | z-score, replicate C | Call |
| --- | --- | --- | --- | --- | --- |
| SRP14 | 0.4 | 0.75 | 0.14 | 0.3 | inactive |
| MCF2L | 0.58 | 0.65 | 0.6 | 0.47 | inactive |
| ATP5PB | -0.07 | 0.04 | -0.04 | -0.2 | inactive |
| IRF2BPL | 2.1 | 2 | 1.94 | 2.37 | inactive |
| SCYL3 | -0.72 | -0.9 | -0.8 | -0.45 | inactive |
| H1-6 | 0.31 | 0.43 | 0.12 | 0.37 | inactive |
| PIGP | -0.08 | 0.46 | -0.35 | -0.35 | inactive |
| KLF15 | -1.55 | -1.38 | -1.56 | -1.72 | inactive |
| MAGEB1 | -0.59 | -0.68 | -0.65 | -0.45 | inactive |
| ASB3 | -0.76 | -0.97 | -0.69 | -0.62 | inactive |
| TSSK6 | -1.27 | -1.26 | -1.32 | -1.22 | inactive |
| REC114 | 0.39 | 0.6 | 0.47 | 0.11 | inactive |
| LINC02577 | 0.29 | 0.62 | -0.11 | 0.36 | inactive |
| RPS27L | -0.22 | 0.08 | -0.17 | -0.57 | inactive |
| LOC340765 (retired record) | 0.63 | 0.09 | 0.8 | 1 | inactive |
| KLHL26 | -0.57 | -0.86 | -1 | 0.15 | inactive |
| PRX | -0.5 | -0.76 | -0.52 | -0.21 | inactive |
| SIPA1L1 | 1.26 | 0.94 | 1.4 | 1.43 | inactive |
| PGBD5 | -0.7 | -0.49 | -1.01 | -0.62 | inactive |
| EIF3M | -2.44 | -2.36 | -2.43 | -2.53 | inactive |
| CD109 | -0.37 | -0.48 | 0.02 | -0.65 | inactive |
| TBX22 | -0.66 | -0.75 | -0.65 | -0.57 | inactive |
| PSMA2 | 0.48 | 0.69 | 0.77 | -0.02 | inactive |
| TMEM220 | -0.38 | -0.09 | -0.15 | -0.89 | inactive |
| SCGB3A2 | -0.89 | -0.79 | -0.93 | -0.94 | inactive |
| LOC440746 (retired record) | 0.7 | 0.86 | 0.77 | 0.47 | inactive |
| ELMOD1 | 0.17 | 0.14 | 0.28 | 0.11 | inactive |
| CCL4L2 | -1.11 | -0.89 | -1.25 | -1.2 | inactive |
| SPINK6 | 0.39 | 0.23 | 0.32 | 0.62 | inactive |
| TREML1 | -1.3 | -0.76 | -1.25 | -1.89 | inactive |
| RPS6 | -2.15 | -1.95 | -2.3 | -2.21 | inactive |
| AKR1E2 | 0.91 | 0.98 | 0.86 | 0.87 | inactive |
| FYB1 | 0.8 | 0.98 | 0.52 | 0.89 | inactive |
| AP1G1 | 1.59 | 1.78 | 1.57 | 1.41 | inactive |
| LOC388887 (retired record) | -0.1 | -0.09 | -0.13 | -0.09 | inactive |
| ABCB4 | 0.95 | 0.75 | 0.9 | 1.21 | inactive |
| UBN1 | -0.79 | -0.63 | -1.16 | -0.56 | inactive |

Laid out differently: 9 of the entries above.
target gene	mean z-score	z-score, replicate A	z-score, replicate B	z-score, replicate C	Call
TSSK6	-1.27	-1.26	-1.32	-1.22	inactive
REC114	0.39	0.6	0.47	0.11	inactive
LINC02577	0.29	0.62	-0.11	0.36	inactive
RPS27L	-0.22	0.08	-0.17	-0.57	inactive
LOC340765 (retired record)	0.63	0.09	0.8	1	inactive
KLHL26	-0.57	-0.86	-1	0.15	inactive
PRX	-0.5	-0.76	-0.52	-0.21	inactive
SIPA1L1	1.26	0.94	1.4	1.43	inactive
PGBD5	-0.7	-0.49	-1.01	-0.62	inactive

Further reagents:
| target gene | mean z-score | z-score, replicate A | z-score, replicate B | z-score, replicate C | Call |
| --- | --- | --- | --- | --- | --- |
| DPP4 | 0.19 | 0.06 | 0.1 | 0.4 | inactive |
| SLC25A14 | -0.31 | -0.3 | -0.24 | -0.41 | inactive |
| ANKRD20A1 | -1.71 | -1.52 | -1.85 | -1.75 | inactive |
| PTTG2 | 1.26 | 1.06 | 1.3 | 1.42 | inactive |
| AP4B1 | 2.44 | 2.81 | 1.97 | 2.54 | active |
| LOC388274 (retired record) | 0.77 | 1.15 | 0.45 | 0.71 | inactive |
| LINC01142 | -0.68 | -0.86 | -0.6 | -0.59 | inactive |
| BMP6 | 0.13 | 0.13 | 0.06 | 0.21 | inactive |
| H3C11 | 0.95 | 1.01 | 0.98 | 0.85 | inactive |
| TNFSF12-TNFSF13 | -0.99 | -0.6 | -1.24 | -1.12 | inactive |
| PLPPR4 | -0.31 | -0.3 | -0.44 | -0.19 | inactive |
| PRRG3 | -1.58 | -1.37 | -1.66 | -1.7 | inactive |
| TPPP2 | 1.53 | 1.74 | 1.45 | 1.4 | inactive |
| PGBD1 | 1.14 | 1.25 | 1.11 | 1.07 | inactive |
| PTPN13 | 0.2 | 0.38 | 0.08 | 0.15 | inactive |
| MAD2L1BP | -0.12 | 0.02 | -0.33 | -0.05 | inactive |
| DTYMK | -1.16 | -0.87 | -1.36 | -1.25 | inactive |
| FBXO6 | -0.23 | -0.32 | 0.08 | -0.45 | inactive |
| PMFBP1 | -0.23 | 0.08 | -0.33 | -0.45 | inactive |
| CARTPT | -1.84 | -1.92 | -1.83 | -1.77 | inactive |
| AAR2 | -0.03 | -0.14 | -0.04 | 0.08 | inactive |
| PNPLA5 | -0.98 | -0.77 | -1.18 | -1 | inactive |
| FKBP14 | 1.18 | 1.01 | 1.21 | 1.32 | inactive |
| GTPBP2 | 1.07 | 1.15 | 0.72 | 1.35 | inactive |
| VWA2 | -0.37 | -0.36 | -0.34 | -0.41 | inactive |
| C3orf80 | 0.09 | -0.27 | -0.06 | 0.6 | inactive |
| KLF4 | 0.17 | 0.04 | 0.33 | 0.15 | inactive |
| KLK1 | -0.4 | -0.44 | -0.63 | -0.12 | inactive |
| PODN | 0.78 | 0.99 | 0.74 | 0.6 | inactive |
| PCDHA5 | -0.39 | -0.43 | -0.37 | -0.36 | inactive |
| HSPB3 | 0.7 | 0.51 | 0.81 | 0.77 | inactive |
| ZNF846 | 1.37 | 1.19 | 1.57 | 1.34 | inactive |
| UBA2 | -0.83 | -0.54 | -1.14 | -0.81 | inactive |
| PRAMEF20 | -2.42 | -2.27 | -2.24 | -2.76 | inactive |
| ZNF26 | 0.84 | 0.71 | 0.98 | 0.83 | inactive |
| CPQ | -1.6 | -1.41 | -1.78 | -1.6 | inactive |
